Measured values from several laboratories, pooled; numbers as filed in NIAID ChemDB.

Common to all: cytotoxicity tests; measure: CC50

CCn is the concentration with n% toxicity to the cells. Rows are shuffled and stem from different studies. a–b is a range or a potency band.

OC[C@@H]1[C@@H](O)[C@@H](O)CN1Cc1ccccc1 ; cells: Karpas 45 cells ; result: >100 µg/mL
COc1cc(S(C)(=O)=O)ccc1C(=O)N[C@H]1N=C(c2ccccc2)c2ccccc2NC1=O ; cells: HEP-2 ; result: 0.6 µM
CN(C)c1ncnc2c1ncn2CCOCP(=O)(O)O ; cells: P3HR-1 ; result: >100 µg/mL
NC[C@@H]1O[C@H](O[C@H]2[C@@H](O)[C@H](O[C@@H]3[C@@H](O)[C@H](N)C[C@H](N)[C@H]3O[C@H]3O[C@H](CO)[C@@H](O)C[C@H]3N)O[C@@H]2CO)[C@H](N)[C@@H](O)[C@@H]1O[C@H]1O[C@H](CO)[C@@H](O)[C@H](O)[C@@H]1O ; cells: HeLa ; result: 200 µg/mL
OC[C@@H]1C[C@@H](O)[C@H](n2cnc3c(NC4CCCCC4)nccc32)O1 ; cells: MDBK ; result: >400 µM
C=CCCCCn1c2ccccc2c2c(C)c3cnccc3c(C)c21 ; cells: VERO ; result: 5.54 µg/mL
Nc1nc(NC2CC2)cc(OCCOCP(=O)(O)O)n1 ; cells: HeLa S3 ; result: <10 µM
Nc1nc2c(ncn2COC(CO)CO)c(=O)[nH]1 ; cells: HSB-2 ; method: MTT ; result: 54 µM
O=C(O)C1CSCN1 ; cells: HeLa ; result: 200 µg/mL
C/C(=N\NC(=O)c1ccncc1)c1cccc(C(F)(F)F)c1 ; cells: VERO ; result: >10 µg/mL
CCOC(=O)c1ccc2nc(-c3ccc(Cl)cc3)[nH]c2c1 ; cells: Vero cell ; method: MTT ; result: >62.5 µg/mL
Nc1ncnc2c1ncn2[C@H]1C[C@H](O)[C@@H](CO)O1 ; cells: Sheep chondrocytes G81092 ; method: MTT ; result: >400 µM
Nc1ncnc2c1ncn2C[C@@H](CO)OCP(=O)(O)O ; cells: U87MG ; result: 13 µg/mL
CC[C@H]1C[C@H]2CC[C@H](O2)[C@H](C)C(=O)O[C@H](C)C[C@@H]2CC[C@@H](O2)[C@H](C)C(=O)O[C@@H](CC)C[C@H]2CC[C@H](O2)[C@H](C)C(=O)O[C@H](C)C[C@@H]2CC[C@@H](O2)[C@H](C)C(=O)O1 ; cells: VERO ; result: 0.4 µg/mL
COc1ccc(-c2cc(=O)c3c(OC)cc(OC)c([C@H]4C(=O)c5c(OC)cc(OC)cc5O[C@@H]4c4ccc(OC)cc4)c3o2)cc1 ; cells: MDCK ; method: neutral red ; result: ~100 µg/mL
Cc1[nH]nc(C(=O)N/N=C/c2ccccc2Cl)c1N=NN(C)C ; cells: VERO ; result: 0.65 µg/mL
OC[C@@H](O)C(O)[C@@H](O)CO ; cells: HeLa ; result: >200 µg/mL
Cc1cc(CCN)c(C)c2c1oc1ccccc12 ; cells: VERO ; result: 1.27 µg/mL
OC[C@H]1O[C@@H](n2cnc3c(NC4CC4)ncnc32)C[C@@H]1O ; cells: Sheep chondrocytes G81092 ; method: MTT ; result: 312 µM
O=c1cc(-c2ccc(O)c(-c3c(O)cc4oc(-c5ccc(O)cc5)cc(=O)c4c3O)c2)oc2cc(O)cc(O)c12 ; cells: MA-104 ; method: visual reading ; result: ~56 µg/mL
S=C(NCCNC(=S)[S][Sn]([c]1ccccc1)([c]1ccccc1)[c]1ccccc1)[S][Sn]([c]1ccccc1)([c]1ccccc1)[c]1ccccc1 ; cells: VERO ; result: <0.41 µg/mL
COc1cc([C@@H]2c3cc4c(cc3[C@H](OC(C)=O)[C@@H]3COC(=O)[C@@H]23)OCO4)cc(O)c1O ; cells: HT-29 ; result: 5.84 µM
C[C@@H](Cn1cnc2c(NCCN(C)C)ncnc21)OCP(=O)(O)O ; cells: P3HR-1 ; result: 21 µg/mL
OC[C@H]1NC[C@H](O)[C@@H]1O ; cells: Karpas 45 cells ; result: >130 µg/mL
C(=N\Nc1nncs1)/c1cn(CC2CC2)c2ccccc12 ; cells: Fibroblast L929 cell line ; method: MTT ; conditions: 24 h ; result: >100 µg/mL
CC(=O)N[C@H]1CN[C@H](CO)[C@@H](O)[C@@H]1O ; cells: Karpas 45 cells ; result: >190 µg/mL
O=C(N/N=C/c1ccc2c(c1)OCO2)c1ccncc1 ; cells: VERO ; result: >10 µg/mL
C=CCNc1ncnc2c1ncn2CCOCP(=O)(O)O ; cells: P3HR-1 ; result: 18 µg/mL
COc1cc([C@@H]2c3cc4c(cc3[C@H](OC(C)=O)[C@@H]3COC(=O)[C@@H]23)OCO4)cc2c1OC1(N3CCOCC3)CCCCC1O2 ; cells: HT-29 ; result: 8.66 µM
COC(=O)n1c(=O)nc2c3c(ncn21)Oc1c(c(-c2ccccc2)nn1-c1ccccc1)C3c1ccc(Cl)cc1 ; cells: VERO ; result: 0.23 µg/mL
CC1C(=O)N(O)c2ncc(Br)cc2C1O ; cells: HepG2-NTCP-12 ; method: MTS ; conditions: 3 d ; result: >100 µM
O=c1[nH]c(=O)n([C@H]2C[C@H](O)[C@@H](CO)O2)cc1I ; cells: CBMC ; method: MTT ; result: 178 µM
C[C@H](Cn1cnc2c(N)nc(N)nc21)OCP(=O)(O)O ; cells: P3HR-1 ; result: 160 µg/mL
Nc1ccnc2c1ncn2[C@@H]1O[C@H](CO)C[C@H]1O ; cells: Sheep chondrocytes G81092 ; result: >400 µM
CC(C)(C)NCc1cc(C(C)(C)C)cc(-c2ccc(Cl)cc2)c1O ; cells: VERO ; result: 10 µg/mL
Cc1cc(=O)n(CCOCP(=O)(O)O)c(N)n1 ; cells: HeLa S3 ; result: <10 µM
CCCn1cc(/C=N/Nc2nncs2)c2ccccc21 ; cells: Fibroblast L929 cell line ; method: MTT ; conditions: 24 h ; result: >100 µg/mL
O=C1C[C@@H](c2ccc(O)cc2)Oc2cc(O)c(-c3c(O)cc4c(c3O)C(=O)C[C@@H](c3ccc(O)cc3)O4)c(O)c21 ; cells: MDCK ; method: neutral red ; result: 7 µg/mL
CCOC(=O)c1ccc2c(c1)nc(-c1ccc(C(F)(F)F)cc1)n2CCN1CCCOC1 ; cells: Vero cell ; method: MTT ; result: >62.5 µg/mL
Cc1ccc2nc(Nc3ccc(Cl)cc3)cc(C(O)C3CCCCN3)c2c1 ; cells: VERO ; result: 4.1 µg/mL
COc1cc(C(F)(F)F)ccc1C(=O)N[C@H]1N=C(c2ccccc2)c2ccccc2NC1=O ; cells: HEP-2 ; result: 2.7 µM
CCOC(=O)C(NC(=O)CC)(N1CCN(c2cc3c(cc2F)c(=O)c(C(=O)O)cn3C2CC2)CC1)C(F)(F)F ; cells: VERO ; result: >62.5 µg/mL
CN(C)c1cc(OCCOCP(=O)(O)O)nc(N)n1 ; cells: CCRF-CEM ; result: <10 µM
OC[C@@H]1CC[C@H](n2cnc3c(NC4CCCCCC4)ncnc32)O1 ; cells: Sheep chondrocytes G81092 ; method: MTT ; result: 308 µM
CCN1C[C@H](O)[C@@H](O)[C@H](O)[C@H]1CO ; cells: Karpas 45 cells ; result: >500 µg/mL
COC(=O)[C@@H]1[C@H](c2cc(OC)c(OC(C)=O)c(OC(C)=O)c2)c2cc3c(cc2C2=NOC[C@@H]21)OCO3 ; cells: MEL-28 ; result: 20 µM
OC[C@H]1O[C@@H](n2cnc3c(NC4CCCCCC4)ncnc32)C[C@@H]1O ; cells: Sheep chondrocytes G81092 ; method: MTT ; result: 108 µM
CC(C)Cn1c[n+](Cc2ccc([N+](=O)[O-])cc2)c2c1C(=O)c1ccccc1C2=O ; cells: VERO ; result: 29.3 µg/mL
Fc1ccc(Cn2cc(/C=N/Nc3nncs3)c3ccccc32)cc1 ; cells: Fibroblast L929 cell line ; method: MTT ; conditions: 24 h ; result: >100 µg/mL
Cc1ccc(NCCC2CCCN3CCCCC23)c2c(=O)c3ccccc3sc12 ; cells: VERO ; result: 1.92 µg/mL
Nc1cc(=O)n(CCOCP(=O)(O)O)cn1 ; cells: HeLa S3 ; result: <10 µM
Cc1ccc(Cn2cc(/C=N/Nc3nncs3)c3ccccc32)cc1 ; cells: Fibroblast L929 cell line ; method: MTT ; conditions: 24 h ; result: >100 µg/mL
CCOC(=O)c1ccc2c(c1)nc(-c1ccc3c(c1)OCO3)n2CCN1CCCOC1 ; cells: Vero cell ; method: MTT ; result: >62.5 µg/mL
COC1=CC([C@@H]2c3cc4c(cc3[C@H](OC(C)=O)[C@@H]3COC(=O)[C@H]32)OCO4)=CC(=O)C1=O ; cells: P-388 ; result: 0.59 µM
CCOC(=O)c1ccc2nc(C3C(c4ccccc4)C(=O)C3c3ccc(OC)cc3)[nH]c2c1 ; cells: Vero cell ; method: MTT ; result: >62.5 µg/mL
O=C1Nc2ccccc2C(c2ccccc2)=NC1NCc1ccc(C(F)(F)F)cc1 ; cells: VERO ; result: 50 µM
O=C/C=C/c1ccc([N+](=O)[O-])cc1Cl ; cells: VERO ; result: 6.8 µg/mL
CS(=O)(=O)NC1N=C(c2ccccc2)c2ccccc2NC1=O ; cells: VERO ; result: 6 µM
CCOC(=O)c1ccc2nc(-c3ccc(Br)cc3)[nH]c2c1 ; cells: Vero cell ; method: MTT ; result: >62.5 µg/mL
Nc1ncnc2c1ncn2C[C@@H](CO)OCP(=O)(O)O ; cells: CBMC ; method: MTT ; result: 19 µM
Cc1cc2c(C(C)C)c(O)c(O)c(C=O)c2c(O)c1-c1c(C)cc2c(C(C)C)c(O)c(O)c(C=O)c2c1O ; cells: HeLa ; result: 100 µM
Nc1ccn(C[C@H]2COP(=O)(O)CO2)c(=O)n1 ; cells: CBMC ; method: MTT ; result: 157 µM
CCC(=O)O[C@@H]1CC(=O)O[C@H](C)C/C=C/C=C/[C@H](O[C@H]2CC[C@H](N(C)C)[C@H](C)O2)[C@H](C)C[C@H](CC=O)[C@H](O[C@@H]2O[C@H](C)[C@@H](O[C@H]3C[C@@](C)(O)[C@@H](O)[C@H](C)O3)[C@H](N(C)C)[C@H]2O)[C@H]1OC ; cells: HeLa ; result: >100 µg/mL
O=C1NOCC1N=Cc1cc(Cl)ccc1O ; cells: VERO ; result: 39.34 µg/mL
Cc1ccc2c(c1)NC(=O)C(NC(=O)c1cccs1)N=C2c1ccccc1 ; cells: HEP-2 ; result: 5 µM
OC[C@@H]1C[C@@H](O)[C@H](n2cnc3c(NC4CCCCCC4)cc(Cl)nc32)O1 ; cells: MDBK ; result: 191 µM
Cn1cc(NC(=O)c2cc(NC(=O)CCCCCCC(=O)Nc3cc(C(=O)Nc4cc(C(=O)NCCC(N)=[NH2+])n(C)c4)n(C)c3)cn2C)cc1C(=O)NCCC(N)=[NH2+] ; cells: VERO ; result: 1.8 µg/mL
CCn1cc(/C=N/Nc2nncs2)c2ccccc21 ; cells: Fibroblast L929 cell line ; method: MTT ; conditions: 24 h ; result: >100 µg/mL
COc1cc([C@@H]2c3cc4c(cc3[C@H](OC(C)=O)[C@@H]3COC(=O)[C@@H]23)OCO4)cc(OC(C)=O)c1OC(C)=O ; cells: MEL-28 ; result: 2.2 µM
Cc1cc2nc3ccc(N=Nc4ccc(N(C)C)cc4)cc3n(-c3ccccc3)c-2cc1=N ; cells: VERO ; result: 0.08 µg/mL
COc1ccc2c(c1OC)C(=O)O[C@@H]2[C@H]1c2cc3c(cc2CCN1C)OCO3 ; cells: HeLa ; result: 10–20 µg/mL
CCOC(=O)c1ccc2nc(-c3ccc4c(c3)OCO4)[nH]c2c1 ; cells: Vero cell ; method: MTT ; result: >62.5 µg/mL
O=C(Oc1c(O)c2ccccc2c2ccccc12)c1ccccc1 ; cells: VERO ; result: 0.24 µg/mL
C[C@H]1[C@H](O)[C@@H](C)/C=C/C=C/C=C/C=C/C=C/C=C/C=C/[C@H](O[C@@H]2O[C@H](C)[C@@H](O)[C@H](N)[C@@H]2O)C[C@@H]2O[C@](O)(C[C@@H](O)C[C@@H](O)CC[C@H](O)[C@@H](O)C[C@@H](O)CC(=O)O[C@H]1C)C[C@H](O)[C@H]2C(=O)O ; cells: HeLa ; result: 25 µg/mL
OC[C@@H]1NC[C@H](O)[C@H]1O ; cells: Karpas 45 cells ; result: >500 µg/mL
O=c1[nH]nc2c3cccc4cccc(c5ccc(O)c1c52)c43 ; cells: VERO ; result: 3.8 µg/mL
NC[C@H]1O[C@H](O[C@H]2[C@H](O[C@@H]3O[C@H](CO)[C@@H](O)[C@H]3O)[C@@H](O)[C@H](N)C[C@@H]2N)[C@H](N)[C@@H](O)[C@@H]1O ; cells: HeLa ; result: >100 µg/mL
OC[C@@H](O)[C@H]1NC[C@@H](O)[C@H]1O ; cells: Karpas 45 cells ; result: >300 µg/mL
O=C(O)P(=O)(O)O ; cells: H4 ; result: 260 µg/mL

Repeating the first 4 entries:

OC[C@@H]1[C@@H](O)[C@@H](O)CN1Cc1ccccc1 ; cells: Karpas 45 cells ; result: >100 µg/mL
COc1cc(S(C)(=O)=O)ccc1C(=O)N[C@H]1N=C(c2ccccc2)c2ccccc2NC1=O ; cells: HEP-2 ; result: 0.6 µM
CN(C)c1ncnc2c1ncn2CCOCP(=O)(O)O ; cells: P3HR-1 ; result: >100 µg/mL
NC[C@@H]1O[C@H](O[C@H]2[C@@H](O)[C@H](O[C@@H]3[C@@H](O)[C@H](N)C[C@H](N)[C@H]3O[C@H]3O[C@H](CO)[C@@H](O)C[C@H]3N)O[C@@H]2CO)[C@H](N)[C@@H](O)[C@@H]1O[C@H]1O[C@H](CO)[C@@H](O)[C@H](O)[C@@H]1O ; cells: HeLa ; result: 200 µg/mL